Results of unrelated studies side by side (data: NIAID ChemDB).

Common to all: growth or infection tests; organism: Cryptococcus neoformans; read-out: MIC

Rows are shuffled and stem from different studies.

{"structure": "O=C1c2c(O)ccc(O)c2C(=O)c2c(NCCNCCO)ccc(NCCNCCO)c21", "strain": "NCPF 3379", "result": "32.9 µM"}
{"structure": "CCCC(C)C(Cn1ccnc1)c1ccc(Cl)cc1Cl", "result": "<1 µg/mL"}
{"structure": "COC(=O)[C@H]1[C@@H]2C[C@@H](O[C@@H]3O[C@H](C)[C@@H](O)[C@H](N)[C@@H]3O)/C=C/C=C/C=C/C=C/C=C/C=C/C=C/[C@H](C)[C@@H](O)[C@H](C)[C@H](C)OC(=O)C[C@H](O)C[C@H](O)[C@@H](O)CC[C@H](O)C[C@H](O)C[C@](O)(C[C@@H]1O)O2", "result": "0.8 µM"}
{"structure": "Oc1ccccc1N=Cc1ccc2c(c1)OCO2", "strain": "ATCC 24067", "read by": "broth dilution", "result": "4 µg/mL"}
{"structure": "Cc1nnc(NS(=O)(=O)c2ccc(N)cc2)s1", "strain": "IFM 40215", "result": "≥256 µg/mL"}
{"structure": "COc1ccccc1N1CCN(CCc2nnnn2CC(O)(Cn2cncn2)c2ccc(F)cc2F)CC1", "strain": "LA314", "result": ">16 µg/mL"}
{"structure": "NCCNC(=O)C1=Nc2ccc(NC(=O)C3=Nc4ccc(C(=O)Nc5ccc6[nH]c(C(=O)NCCN)cc6c5)cc4C3)cc2C1", "strain": "Serotype A", "result": "8 µg/mL"}
{"structure": "C[C@@H](n1cnc2cc(Cl)ccc2c1=O)[C@](O)(Cn1cncn1)c1ccc(F)cc1F", "strain": "Isolate 119.95", "result": "0.0024 µg/mL"}
{"structure": "C[C@@H]([C@@](O)(Cn1cncn1)c1ccc(F)cc1F)S(C)(=O)=O", "strain": "R716 (AZOLE-R)", "result": ">1000 µM"}
{"structure": "Cc1cc(NS(=O)(=O)c2ccc(N)cc2)no1", "strain": "IFM 49722", "result": "32 µg/mL"}
{"structure": "COc1cccc2c1C(=O)c1c(O)c3c(c(O)c1C2=O)C[C@@](O)(C(=O)CO)C[C@@H]3O[C@H]1C[C@H](N)[C@@H](O)[C@H](C)O1", "strain": "NCPF 3379", "result": ">100 µM"}
{"structure": "C[C@@H](n1ccn(-c2ccc(OC(F)(F)F)cc2)c1=O)C(O)(Cn1cncn1)c1ccc(F)cc1F", "strain": "TIMM1740", "result": "0.03 µg/mL"}
{"structure": "CCC(C)n1ncn(-c2ccc(N3CCN(c4ccc(OC[C@H]5CO[C@](Cn6cncn6)(c6ccc(Cl)cc6Cl)O5)cc4)CC3)cc2)c1=O", "strain": "Clinical isolate (IM 983036)", "read by": "broth dilution", "result": "<0.015 µg/mL"}
{"structure": "CCCCn1nc(-c2cc(C)on2)c(N=O)c1C", "result": "9 µM"}
{"structure": "CC[C@@]1(O)C[C@H](O[C@H]2C[C@H](N(C)C)[C@H](O[C@H]3C[C@H](O)[C@H](O[C@H]4CCC(=O)[C@H](C)O4)[C@H](C)O3)[C@H](C)O2)c2c(cc3c(c2O)C(=O)c2c(O)cccc2C3=O)[C@H]1C(=O)OC", "strain": "N-2", "result": "0.8 µg/mL"}
{"structure": "Cc1cc(NS(=O)(=O)c2ccc(N)cc2)nc(C)n1", "strain": "IFM 49722", "result": "≥256 µg/mL"}
{"structure": "CCCCC(Cn1ccnc1)c1ccccc1Br", "result": "10 µg/mL"}
{"structure": "Clc1ccc(CC(Cn2ccnc2)c2ccccc2Br)c(Cl)c1", "result": "<1 µg/mL"}
{"structure": "O=C1/C(=C/c2ccccc2O)COc2ccccc21", "strain": "Farwania", "result": "12.5 µg/mL"}
{"structure": "CCC(C)C(Cn1ccnc1)c1ccc(Cl)cc1Cl", "result": "<10 µg/mL"}
{"structure": "C[C@@H](n1ccn(-c2ccc(OCC(F)(F)C(F)F)cc2)c1=O)C(O)(Cn1cncn1)c1ccccc1F", "strain": "TIMM1855", "result": "0.13 µg/mL"}
{"structure": "C[C@H](n1nnnc1CCN1CCN(c2cccc(Cl)c2)CC1)[C@](O)(Cn1cncn1)c1ccc(F)cc1F", "strain": "LA314", "result": ">16 µg/mL"}
{"structure": "CCCCC(Cn1ccnc1)c1ccc(Cl)cc1Cl", "result": "<1 µg/mL"}
{"structure": "CC(C)C(=O)CCC[C@@H]1CO[C@@](Cn2cccc2)(c2ccc(F)cc2F)C1", "strain": "B42419", "result": ">100 µg/mL"}
{"structure": "Clc1ccc(CCC(Cn2ccnc2)c2ccc(Cl)cc2Cl)c(Cl)c1", "result": "<1 µg/mL"}
{"structure": "C[C@@H](N1CCN(c2ccc(OC(F)(F)C(F)F)cc2)C1=O)C(O)(Cn1cncn1)c1ccccc1F", "strain": "TIMM1855", "result": "<0.016 µg/mL"}
{"structure": "CN(C)c1ccc(C2Sc3ccccc3C2CO)cc1", "strain": "Farwania", "result": "50 µg/mL"}
{"structure": "C[C@@H](c1ncncc1F)[C@](O)(Cn1cncn1)c1ccc(F)cc1F", "strain": "B 34336", "read by": "broth dilution", "result": "0.063 µg/mL"}
{"structure": "C[C@@H](n1ncn(-c2ccc(OCC(F)(F)C(F)F)cc2)c1=O)[C@](O)(Cn1cncn1)c1ccc(F)cc1F", "strain": "DUMC 133.95", "result": "0.5 µg/mL"}
{"structure": "COc1ccc(CCC(Cn2ccnc2)c2ccc(Cl)cc2Cl)cc1", "result": "<1 µg/mL"}
{"structure": "Cn1nc(Cc2ccc(Cl)cc2)c2ccccc2c1=O", "strain": "Clinical isolate (IM 031633)", "read by": "broth dilution", "result": "15.6 µg/mL"}
{"structure": "Oc1ccc(O)c(C=Nc2ccccc2O)c1", "strain": "GM", "read by": "broth dilution", "result": "8 µg/mL"}
{"structure": "Cc1onc(-c2nn(C)c(C)c2[N+](=O)[O-])c1[N+](=O)[O-]", "result": ">200 µM"}
{"structure": "CCCCCCCC(Cn1ccnc1)c1ccccc1Cl", "result": "10 µg/mL"}
{"structure": "COc1cccc(C2Sc3ccccc3C2CO)c1O", "strain": "Isolate 25", "result": "6 µg/mL"}
{"structure": "CC(C)C(=N)CCC[C@H]1CO[C@@](Cn2ccnc2)(c2ccc(F)cc2F)C1", "strain": "B42419", "result": "100 µg/mL"}
{"structure": "OCC1c2ccccc2SC1c1ccc(O)cc1O", "strain": "Isolate 25", "result": "6 µg/mL"}
{"structure": "CC(C)C(=N)CCC[C@H]1CO[C@@](Cn2cccc2)(c2ccc(F)cc2F)C1", "strain": "A.34144", "result": "25 µg/mL"}
{"structure": "CCCCC(Cn1ccnc1)c1ccc(F)cc1", "result": "<1 µg/mL"}
{"structure": "COc1ccc(N2CCN(CCc3nnnn3[C@@H](C)[C@](O)(Cn3cncn3)c3ccc(F)cc3F)CC2)cc1", "strain": "LA314", "result": ">16 µg/mL"}
{"structure": "C[C@@H](N1CCN(c2ccc(F)cc2)C1=O)C(O)(Cn1cncn1)c1ccc(F)cc1F", "strain": "TIMM1855", "result": "0.13 µg/mL"}
{"structure": "COC1CC2CCC(C)C(O)(O2)C(=O)C(=O)N2CCCCC2C(=O)OC(C(C)CC2CCC(O)C(OC)C2)CC(=O)C(C)/C=C(\\C)C(O)[C@@](OC)(N(O)C(=O)OCC(C)C)C(=O)C(C)CC(C)/C=C/C=C/C=C/1C", "strain": "WILD TYPE", "result": ">100 µg/mL"}
{"structure": "Cc1ccccc1C(Cc1ccc(Cl)cc1)Cn1ccnc1", "result": "10 µg/mL"}
{"structure": "Nc1[nH]c(=O)ncc1F", "strain": "H38", "result": "1 µg/mL"}
{"structure": "OC(Cn1cncn1)(Cn1cncn1)c1ccc(F)cc1F", "strain": "TIMM0354", "result": "100 µg/mL"}
{"structure": "OCC1c2ccccc2SC1c1cc(Cl)ccc1O", "strain": "Farwania", "result": "12.5 µg/mL"}
{"structure": "Cc1cc(-c2cc(C)n(C)n2)no1", "result": ">200 µM"}
{"structure": "O=[N+]([O-])c1ccc(N2CCN(CCc3nnnn3CC(O)(Cn3cncn3)c3ccc(F)cc3F)CC2)cc1", "strain": "LA314", "result": "8 µg/mL"}
{"structure": "C[C@@H](n1ccn(-c2ccc(OCC(F)(F)C(F)F)cc2)c1=O)C(O)(Cn1cncn1)c1ccc(F)cc1F", "strain": "TIMM1740", "result": "0.06 µg/mL"}
{"structure": "COc1ccc2c(c1)C(=O)/C(=C/c1ccc3ccccc3c1)CO2", "strain": "93/V", "result": "12.5 µg/mL"}
{"structure": "CC(=O)[C@]1(O)Cc2c(O)c3c(c(O)c2[C@@H](O[C@H]2C[C@H](N)[C@H](O)[C@H](C)O2)C1)C(=O)c1ccccc1C3=O", "strain": "NCPF 3379", "result": "13.4 µM"}
{"structure": "C=CC[C@@H]1/C=C(/C)C[C@H](C)C[C@H](OC)[C@H]2O[C@@](O)(C(=O)C(=O)N3CCCC[C@H]3C(=O)O[C@H](/C(C)=C/[C@@H]3CC[C@@H](O)[C@H](OC)C3)[C@H](C)[C@@H](O)CC1=O)[C@H](C)C[C@@H]2OC", "strain": "C20F1", "result": "100 µg/mL"}
{"structure": "CCCC(Cn1ccnc1)c1ccc(Cl)cc1Cl", "result": "<1 µg/mL"}
{"structure": "Oc1ccccc1C=Nc1ccccc1O", "strain": "F-10", "read by": "broth dilution", "result": "4 µg/mL"}
{"structure": "CCC(C)n1ncn(-c2ccc(N3CCN(c4ccc(OC[C@H]5CO[C@](Cn6cncn6)(c6ccc(Cl)cc6Cl)O5)cc4)CC3)cc2)c1=O", "strain": "A26037", "result": "0.008 µg/mL"}
{"structure": "N[C@H]1CCC[C@H]1C(=O)O", "strain": "IAM 4514", "result": ">20 µg/mL"}
{"structure": "Oc1ccccc1N=Cc1ccc(F)cc1", "strain": "GM", "read by": "broth dilution", "result": "5.8 µg/mL"}
{"structure": "COc1ccc(/C=C2\\CSc3ccccc3C2=O)cc1OC", "strain": "25", "result": "50 µg/mL"}
{"structure": "CCCC(Cn1ccnc1)c1ccc(Cl)cc1", "result": "10 µg/mL"}
{"structure": "CC(C)C(=O)CCC[C@@H]1CO[C@@](Cn2ccnc2)(c2ccc(F)cc2F)C1", "strain": "A.34144", "result": "0.78 µg/mL"}
{"structure": "Oc1cccc(C=Nc2ccccc2O)c1", "strain": "ATCC 28957", "read by": "broth dilution", "result": "2.8 µg/mL"}
{"structure": "CC(C)C(=N)CCC[C@H]1CO[C@@](Cn2cncn2)(c2ccc(F)cc2F)C1", "strain": "A.34144", "result": "100 µg/mL"}
{"structure": "COc1ccc(NS(=O)(=O)c2ccc(N)cc2)nn1", "strain": "IFM 40216", "result": "≥256 µg/mL"}
{"structure": "C[C@H]1[C@H](O)[C@@H](C)/C=C/C=C/C=C/C=C/C=C/C=C/C=C/[C@H](O[C@@H]2O[C@H](C)[C@@H](O)[C@H](N)[C@@H]2O)C[C@@H]2O[C@](O)(C[C@@H](O)C[C@@H](O)CC[C@H](O)[C@@H](O)C[C@@H](O)CC(=O)O[C@H]1C)C[C@H](O)[C@H]2C(=O)O", "strain": "Isolate 89-98", "result": "≤0.14 µg/mL"}
{"structure": "O=[N+]([O-])c1ccc(C=Nc2ccccc2O)cc1", "strain": "28JF", "read by": "broth dilution", "result": "11.3 µg/mL"}
{"structure": "O=C1/C(=C/c2ccc(O)cc2)CCc2ccccc21", "strain": "93/V", "result": "100 µg/mL"}
{"structure": "CN[C@@H]1[C@H](O[C@@H]2O[C@H](CO)[C@@H](O)[C@H](S(=O)(=O)O)[C@H]2O)[C@@H](O)[C@H](O[C@H]2c3cc(C)c(C(=O)N[C@H](C)C(=O)O)c(O)c3-c3c(cc4c(c3O)C(=O)c3cc(OC)cc(O)c3C4=O)[C@@H]2O)O[C@@H]1C", "strain": "IAM 4514", "result": "1.6 µg/mL"}
{"structure": "CCn1nc(C)cc1-c1cc(C)on1", "result": ">200 µM"}
{"structure": "CC[C@@H]([C@H](C)O)n1ncn(-c2ccc(N3CCN(c4ccc(OC[C@@H]5CO[C@@](Cn6cncn6)(c6ccc(F)cc6F)C5)cc4)CC3)cc2)c1=O", "strain": "T-1", "result": "0.125 µg/mL"}
{"structure": "COC1CC2CCC(C)C(O)(O2)C(=O)C(=O)N2CCCCC2C(=O)OC(C(C)CC2CCC(O)C(OC)C2)CC(=O)C(C)/C=C(\\C)C(O)C(OC)C(=O)C(C)C[C@](C)(N(O)C(=O)NN2CCCCC2)/C=C/C=C/C=C/1C", "strain": "TOR1-1", "result": ">100 µg/mL"}
{"structure": "C[C@@H](n1ccn(-c2ccc(C(F)(F)F)cc2)c1=O)C(O)(Cn1cncn1)c1ccc(F)cc1F", "strain": "TIMM1740", "result": "0.03 µg/mL"}

Again, the opening 5 rows:

{"structure": "O=C1c2c(O)ccc(O)c2C(=O)c2c(NCCNCCO)ccc(NCCNCCO)c21", "strain": "NCPF 3379", "result": "32.9 µM"}
{"structure": "CCCC(C)C(Cn1ccnc1)c1ccc(Cl)cc1Cl", "result": "<1 µg/mL"}
{"structure": "COC(=O)[C@H]1[C@@H]2C[C@@H](O[C@@H]3O[C@H](C)[C@@H](O)[C@H](N)[C@@H]3O)/C=C/C=C/C=C/C=C/C=C/C=C/C=C/[C@H](C)[C@@H](O)[C@H](C)[C@H](C)OC(=O)C[C@H](O)C[C@H](O)[C@@H](O)CC[C@H](O)C[C@H](O)C[C@](O)(C[C@@H]1O)O2", "result": "0.8 µM"}
{"structure": "Oc1ccccc1N=Cc1ccc2c(c1)OCO2", "strain": "ATCC 24067", "read by": "broth dilution", "result": "4 µg/mL"}
{"structure": "Cc1nnc(NS(=O)(=O)c2ccc(N)cc2)s1", "strain": "IFM 40215", "result": "≥256 µg/mL"}